Assay results from paper PMC12432378 (Cell Reports Medicine, 2025).

Key:
authentic MjHKU4r-CoV-1 [1] = settings: 40 nM peptide; Figure 6D
authentic MjHKU4r-CoV-1 [2] = experiment: Inhibition of authentic MjHKU4r-CoV-1 infection, RT-qPCR

CC[C@H](C)[C@H](NC(=O)[C@H](C)NC(=O)[C@H](CCSC)NC(=O)[C@H](CCC(=O)O)NC(=O)[C@H](CC(=O)O)NC(=O)[C@H](CO)NC(=O)[C@H](CC(C)C)NC(=O)[C@H](CC(=O)O)NC(=O)[C@H](CC(C)C)NC(=O)[C@H](CC(C)C)NC(=O)[C@@H](NC(=O)[C@@H](NC(=O)[C@H](CC(N)=O)NC(=O)[C@@H](NC(=O)[C@H](CCCCN)NC(=O)[C@H](CO)NC(=O)[C@@H](NC(=O)[C@H](CCC(=O)O)NC(C)=O)[C@@H](C)CC)[C@@H](C)CC)C(C)C)[C@@H](C)O)C(=O)N[C@@H](CC(C)C)C(=O)N[C@@H](CC(C)C)C(=O)N[C@@]1(C)CCCC=CCCC[C@@](C)(C(=O)N[C@@H](CC(C)C)C(=O)N[C@@H](CC(N)=O)C(=O)N[C@@H](CC(=O)O)C(=O)N[C@@H](CO)C(=O)N[C@@H](Cc2ccc(O)cc2)C(=O)N[C@H](C(=O)N[C@@H](CC(=O)O)C(=O)N[C@@H](CC(C)C)C(=O)N[C@@H](CCCCN)C(=O)N[C@@H](CCC(=O)O)C(=O)N[C@@H](CC(C)C)C(N)=O)[C@@H](C)CC)NC(=O)[C@H](CCCCN)NC(=O)[C@H]([C@@H](C)CC)NC(=O)[C@H](C)NC1=O [MjHKU4r-HR2P10]
Suppression of authentic MjHKU4r-CoV-1 N protein expression (immunofluorescence) (authentic MjHKU4r-CoV-1 [1]): almost completely suppressed
IC50 (MjHKU4r-CoV-1 PsV): 8.29 nM
IC50 (authentic MjHKU4r-CoV-1 [2]): 2.13 nM
IC50 (MjHKU4r-S): 3.56 nM
